Pooled drug test results. Numbers come from NIAID ChemDB, via PubChem.

Shared fields: target-level tests; organism: HIV-1; target: Protease

Neighbouring rows are from separate reports. Fold resistance has wild type as its base. ICn: concentration for n% inhibition. Inhibition is in % at the dose shown (toxicity tests: loss of growth or viability).

CCCNC(=O)[C@@H]1O[C@]2(c3ccccc3)CN(C(c3ccccc3)c3ccccc3)C(=O)[C@H]1O2 ; read by: FRET ; read-out: inhibition ; tested at: 10 µM ; result: 0%
CCC[C@H](NC(=O)COc1cccc2ccccc12)C(=O)N[C@@H](Cc1ccccc1)[C@H](O)C(=O)N1CSC[C@H]1C(=O)NC(C)(C)C ; read-out: inhibition ; tested at: 0.05 µM ; result: 89.3%
CCNC(=O)OCCC(C)(C)CN(C[C@@H](O)[C@H](Cc1ccccc1)NC(=O)O[C@H]1CO[C@H]2OCC[C@H]21)S(=O)(=O)c1ccc2c(c1)OCO2 ; read by: fluorescence ; read-out: Ki ; result: <0.001 µM
O=C(CCCCCC(=O)N[C@@H](Cc1ccccc1)C(=O)OCc1ccccc1)N[C@@H](Cc1ccccc1)C(=O)OCc1ccccc1 ; read by: absorbance ; read-out: inhibition ; tested at: 10 µM ; result: <10%
CC(C)[C@H](NC(=O)[C@H](C)NC(=O)OCc1ccccc1)C(=O)N[C@@H](Cc1ccccc1)[C@@H](O)[C@H](O)[C@H](Cc1ccccc1)NC(=O)[C@@H](NC(=O)[C@H](C)NC(=O)OCc1ccccc1)C(C)C ; mutations: PR-V82A ; read-out: fold resistance ; result: 3
CC(C)(CCCCCNC(=O)N1CCOCC1)CN(C[C@@H](O)[C@H](Cc1ccccc1)NC(=O)O[C@H]1CO[C@H]2OCC[C@H]21)S(=O)(=O)c1ccc2c(c1)OCO2 ; read by: fluorescence ; read-out: Ki ; result: <0.001 µM
CC(C)(C)OC(=O)N[C@@H](CC(N)=O)C(=O)N[C@@H](Cc1ccccc1)[C@@H](O)C(=O)NCC1CCCCC1 ; read-out: inhibition ; tested at: 1000 µM ; result: 67.2%
COCCOC(=O)NCCCCCC(C)(C)CN(C[C@@H](O)[C@H](Cc1ccccc1)NC(=O)O[C@H]1CO[C@H]2OCC[C@H]21)S(=O)(=O)c1ccc2c(c1)OCO2 ; read by: fluorescence ; read-out: Ki ; result: <0.001 µM
CSCC[C@H](NC(=O)CCCCCCCCCCCCCCC(=O)N[C@@H](CC(N)=O)C(=O)N[C@@H](Cc1ccccc1)C(=O)O)C(=O)N[C@@H](CC(C)C)C(=O)N[C@@H](Cc1ccccc1)C(N)=O ; read-out: Ki ; result: 1.59 µM
NC(=O)C[C@H](N)C(=O)N[C@@H](Cc1ccccc1)[C@@H](O)C(=O)NCC1CCCCC1 ; read-out: inhibition ; tested at: 1000 µM ; result: 7.9%
CN1CCN(C(=O)[C@@H]2O[C@H]3O[C@@H]2C(=O)N(Cc2ccccc2)[C@@H]3Cc2ccccc2)CC1 ; read by: FRET ; read-out: inhibition ; tested at: 1 µM ; result: 0%
CCCOC(=O)[C@H](Cc1ccccc1)NC(=O)C(=O)N[C@@H](Cc1ccccc1)C(=O)OCCC ; read by: absorbance ; read-out: inhibition ; tested at: 10 µM ; result: <10%
CC[C@H](C)[C@H](NC(=O)[C@@H]1CCCN1C(=O)[C@H](O)[C@H](Cc1ccccc1)NC(=O)[C@H](CO)NC(=O)CCc1ccccc1)C(=O)N[C@H](C(N)=O)C(C)C ; read-out: inhibition ; tested at: 1000 µM ; result: 84.3%
CCOC(=O)NCC(=O)NCCCCC(C)(C)CN(C[C@@H](O)[C@H](Cc1ccccc1)NC(=O)O[C@H]1CO[C@H]2OCC[C@H]21)S(=O)(=O)c1ccc2c(c1)OCO2 ; read by: fluorescence ; read-out: Ki ; result: <0.001 µM
CC(C)[C@H](NC(=O)CCC(O)CCC(=O)N[C@H](C(=O)OCc1ccccc1)C(C)C)C(=O)OCc1ccccc1 ; read by: absorbance ; read-out: inhibition ; tested at: 10 µM ; result: <10%
CC(C)(CCCCNC(=O)CCC1CCCC1)CN(C[C@@H](O)[C@H](Cc1ccccc1)NC(=O)O[C@H]1CO[C@H]2OCC[C@H]21)S(=O)(=O)c1ccc2c(c1)OCO2 ; read by: fluorescence ; read-out: Ki ; result: <0.001 µM
CC(C)[C@H](NC(=O)[C@H](C)NC(=O)[C@H](CO)NC(=O)OCc1ccccc1)C(=O)N[C@@H](Cc1ccccc1)[C@@H](O)[C@H](O)[C@H](Cc1ccccc1)NC(=O)[C@@H](NC(=O)[C@H](C)NC(=O)[C@H](CO)NC(=O)OCc1ccccc1)C(C)C ; mutations: PR-V82F ; read-out: fold resistance ; result: 3.41
Nc1cccc(C(=O)N[C@H](Cc2ccccc2)C[C@H](O)[C@H](Cc2ccccc2)NC(=O)c2cccc(N)c2)c1 ; mutations: PR-V821 ; read by: substrate cleavage ; read-out: fold resistance ; result: 16
CC(O)[C@H](NC(=O)CCCCCCCCCCCCCCC(=O)N[C@@H](CC(N)=O)C(=O)N[C@@H](Cc1ccccc1)C(=O)O)C(=O)N[C@H](C(=O)N[C@@H](Cc1ccccc1)C(N)=O)C(C)(C)C ; read-out: IC50 ; result: 12.8 µM
N[C@@H](Cc1ccccc1)C(=O)N[C@@H](CO)C(=O)N[C@@H](Cc1ccccc1)[C@H](O)C(=O)NCC1CCCCC1 ; read-out: inhibition ; tested at: 1000 µM ; result: 76.2%
C#CCOC(=O)NCCCC(C)(C)CN(C[C@@H](O)[C@H](Cc1ccccc1)NC(=O)O[C@H]1CO[C@H]2OCC[C@H]21)S(=O)(=O)c1ccc2c(c1)OCO2 ; read by: fluorescence ; read-out: Ki ; result: <0.001 µM
CC(C)(C)NC(=O)[C@@H]1CCCN1C(=O)[C@@H](O)[C@H](Cc1ccccc1)NC(=O)[C@H](CC(N)=O)NC(=O)COC(c1cccc(Cl)c1)c1cccc(Cl)c1 ; read-out: inhibition ; tested at: 0.05 µM ; result: 63%
CNC(=O)OCCCC(C)(C)CN(C[C@@H](O)[C@H](Cc1ccccc1)NC(=O)O[C@H]1CO[C@H]2OCC[C@H]21)S(=O)(=O)c1cccc2c1OCO2 ; read by: fluorescence ; read-out: Ki ; result: <0.001 µM
CC(C)C[C@H](NC(=O)[C@@H](NC(=O)CCCCCCCCCCCCCCC(=O)N[C@@H](CC(N)=O)C(=O)N[C@@H](Cc1ccccc1)C(=O)O)C(C)O)C(=O)N1CCC[C@H]1C(=O)O ; read-out: IC50 ; result: >5.5 µM
CC(C)(CCCNS(C)(=O)=O)CN(C[C@@H](O)[C@H](Cc1ccccc1)NC(=O)O[C@H]1CO[C@H]2OCC[C@H]21)S(=O)(=O)c1cccc2c1OCO2 ; read by: fluorescence ; read-out: Ki ; result: <0.001 µM
C[S+](C)C[C@H](NC(=O)COc1cccc2ccccc12)C(=O)N[C@@H](Cc1ccccc1)[C@H](O)C(=O)N1CSC(C)(C)[C@H]1C(=O)NC(C)(C)C ; read-out: inhibition ; tested at: 0.05 µM ; result: 68%
COCCOC(=O)NCCCC(C)(C)CN(C[C@@H](O)[C@H](Cc1ccccc1)NC(=O)O[C@H]1CO[C@H]2OCC[C@H]21)S(=O)(=O)c1ccc2c(c1)OCO2 ; read by: fluorescence ; read-out: Ki ; result: <0.001 µM
CC(C)C[C@H](NC(=O)[C@@H](NC(=O)CCCCCCCCCCCCCCC(=O)N[C@@H](CC(N)=O)C(=O)N[C@@H](Cc1ccccc1)C(=O)O)C(C)O)C(=O)N[C@@H](Cc1cnc[nH]1)C(=O)O ; read-out: IC50 ; result: 125 µM
O=C(NC1CCCCC1)[C@@H]1O[C@]2(c3ccccc3)CN(C(c3ccccc3)c3ccccc3)C(=O)[C@H]1O2 ; read by: FRET ; read-out: inhibition ; tested at: 10 µM ; result: 0%
CN(C)C(=NCCCCCC(C)(C)CN(C[C@@H](O)[C@H](Cc1ccccc1)NC(=O)O[C@H]1CO[C@H]2OCC[C@H]21)S(=O)(=O)c1ccc2c(c1)OCO2)NC#N ; read by: fluorescence ; read-out: Ki ; result: <0.001 µM